From publication PMC10208570 (2023)
Substitutions are numbered along the chain they refer to. In names and notes the source's numbering stands.

Key:
[1] = molecular target: T1, LptAm (E. coli), monomeric truncated variant of LptA (E. coli (ATCC 25922)); assay: FP
T1 chain: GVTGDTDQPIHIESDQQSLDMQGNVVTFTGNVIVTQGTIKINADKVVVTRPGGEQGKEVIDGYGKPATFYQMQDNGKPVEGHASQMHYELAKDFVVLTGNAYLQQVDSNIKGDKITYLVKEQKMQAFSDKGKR

LptAm^Q62L (E. coli) = molecular target: T2, LptAm^Q62L (E. coli) (E. coli (ATCC 25922)); assay: FP
T2 chain: T1 chain with Q36L

B1: LptC^AA (E. coli), periplasmic domain LptC(25-191) Y60A R61A (domain or fragment)
chain: GAEKDDTAQVVVNNNDPTYKSEHTDTLVYNPEGALSAALIAQHVEYYSDQAVSWFTQPVLTTFDKDKIPTWSVKADKAKLTNDRMLYLYGHVEVNALVPDSQLRRITTDNAQINLVTQDVTSEDLVTLYGTTFNSSGLKMRGNLRSKNAELIEKVRTSYEIQNKQTQP
B1 was tested, and the IC50 [1] was 10.8 µM and the IC50 (LptAm^Q62L (E. coli)) was about 38.7 µM.
